How the values were obtained:
VERO cells = assay: Cytotoxicity in VERO cells (MTT, 72 hours); format: cell-based; conditions: IC50 (VERO cells):MIC ratio
M. tuberculosis TAC-R = format: cell-based, Mycobacterium tuberculosis
[1] = test system: M. tuberculosis Erdman (ATCC 35801) in monolayers of mouse bone marrow macrophages; assay: Killing of M. tuberculosis Erdman in mouse bone marrow macrophages; format: cell-based, Mycobacterium tuberculosis; conditions: ratio EC90 to MIC
M. tuberculosis EMB-R = format: cell-based, Mycobacterium tuberculosis; conditions: ratio MIC EMB-R to MIC
M. tuberculosis ETA-R = assay: MIC vs ETA-R M. tuberculosis; format: cell-based, Mycobacterium tuberculosis; conditions: ratio MIC ETA-R to MIC

Row | SMILES | SI (VERO cells) | TAC-R:MIC (M. tuberculosis TAC-R) | EC 90:MIC [1] | EMB-R:MIC (M. tuberculosis EMB-R) | ETA-R:MIC (M. tuberculosis ETA-R)
1 | COc1ccc(/C=N/NC(=O)c2ccncc2)cc1 [Sample ID 102866] | 1520 | >32.5 | 0.4 |  | 
2 | O=C(N/N=C/c1c(F)cccc1F)c1ccncc1 [Sample ID 122489] | >625 |  |  |  | 
3 | O=C(N/N=C/c1ccc(Cl)c(Cl)c1)c1ccncc1 [Sample ID 122490] | >50 |  |  |  | 
4 | O=C(NN=C1CCCCC1)c1ccncc1 [Sample ID 102674] | 40000 |  | 2.67 |  | 
5 | CCOC(=O)C/C(C)=N/NC(=O)c1ccncc1 [Sample ID 101743] | 50000 |  | 0.05 |  | 
6 | O=C(N/N=C/c1cc(Cl)ccc1Cl)c1ccncc1 [Sample ID 117150] |  | >32.05 |  |  | 
7 | CC(C)=CCCC(C)C/C=N/NC(=O)c1ccncc1 (centres unmarked) [Sample ID 102044] | 1000 | 15.65 | 0.1 |  | 
8 | COc1cc(/C=N/NC(=O)c2ccncc2)ccc1O [Sample ID 102858] | 4000 |  | 0.15 |  | 
9 | CCC/C(CC(=O)OCC)=N/NC(=O)c1ccncc1 [Sample ID 101702] | >2631.6 |  |  |  | 
10 | O=C(N/N=C/c1ccc(F)cc1)c1ccncc1 [Sample ID 103167] | 1000 |  | 0.2 |  | 
11 | CC(/C=N/NC(=O)c1ccncc1)=C\c1ccccc1 [Sample ID 103062] | 250 |  | 0.15 |  | 
12 | O=C(N/N=C/c1cccc(/C=N/NC(=O)c2ccncc2)c1)c1ccncc1 [Sample ID 102043] | 126 |  | 0.8 |  | 
13 | CCOC(=O)/C(CCc1ccccc1)=N\NC(=O)c1ccncc1 [Sample ID 132358] | >1250 |  |  | >32 | 0.08
14 | O=C(N/N=C/C=C(c1ccccc1)c1ccccc1)c1ccncc1 [Sample ID 132532] | 68 |  |  | >32 | 0.16
15 | CCCCCCCCCCCC/C=N/NC(=O)c1ccncc1 [Sample ID 102094] | 374 |  | 0.4 |  | 
16 | COc1ccccc1/C=N/NC(=O)c1ccncc1 [Sample ID 102871] | 500 |  | 0.3 |  | 
17 | CCCCOc1ccc(/C=N/NC(=O)c2ccncc2)cc1 [Sample ID 102090] | 2000 |  | 1.8 |  | 
18 | CC1C/C(=N/NC(=O)c2ccncc2)CC(C)(C)C1 (centres unmarked) [Sample ID 114353] | >2000 |  |  |  | 
19 | CC(C)=NNC(=O)c1ccncc1 [Sample ID 102752] | 10000 |  | 0.3 |  | 
20 | O=C(NN=C1CCCC1)c1ccncc1 [Sample ID 111298] |  |  | 1.2 | 2 | 
21 | O=C(N/N=C/c1ccccc1)c1ccncc1 [Sample ID 102787] | 2000 |  | 0.4 |  | 

From patent publication US6846933B1, “Antimycobacterial compounds and method for making the same” (priority 2000, dated 2005)
